For at least one entry, the source does not settle the construct or the ends of the probe.
Target: phosphorylated His6-CpxR (UniProt A0A0H2ZDR9)
Assay: EMSA
Details: acetyl phosphate, 20-160 nM CpxR; EMSA: 0.2 nM DIG-DNA, 37 C 30 min, 6% native PAGE; phosphorylation in 100 mM Tris-HCl pH 7.4, 10 mM MgCl2, 125 mM KCl, 50 mM acetyl phosphate, 30 C 2 h; recombinant protein; residues 1-225; protein details: N-terminal His6 (pET28a); label: DIG; probe letters rebuilt from the primers and the genome

| Sequence | binding result |
| --- | --- |
| CATGCTGGAAGACCGCCATCAGCGCGGGCATCAGGTCGGGATTCACGGGGTAGTTCATTGGTTTGGCCGAGTAAACCTAATGTAAATGTGGTTGATCCAGTCAACTATTTTGCTTATTTTAGTTGACCTTATCAACCTTGTTTCAGGTTCTGAATATGGGCCATG (double strand) [mexAp probe] | binds |
| CCTTTCTGGGTCCGGCCATTTACCGGATGAGCCCAGTCTAGGGAGGTCAAGGTCAAGCGCGGTCAGCCCTGGGTAAAGCTTGGGTAAAGACCTTGTGTCGGCGGGCTGACGAAACCCGCTCAGTGGCTGTAGTAGTAGCC (double strand) [cpxPp probe] | binds |

— article PMC5063474
